Measurements as given in publication PMC6675122, “N-terminal β-strand underpins biochemical specialization of an ATG8 isoform” (PLoS Biology, 2019).

Biological target: PexRD54 full-length protein (purified) (UniProt D0NBE6)
Assay: ITC
Conditions: single site binding model

## ATG8-4 (potato), residues Thr4-Lys113, C-terminal 6xHis V32I
  Kd: 593 nM
